Measured values from several laboratories, pooled; numbers as filed in NIAID ChemDB.

All rows: growth or infection tests; agent: Hepatitis C virus; cell line: Huh7; endpoint: EC50

ECn is the concentration giving n% inhibition of infection, replication or growth.

SMILES	strain	read by	result
CNC(=O)c1c(-c2ccc(F)c(Cl)c2)oc2ccc(OC)cc12		replicon	<10 µM
COc1ccc(C)cc1Nc1s[nH]c(=O)c1C#N		replicon	10–50 µM
CNC(=O)c1c(-c2ccc(F)cc2)oc2cc(C(C)=O)c(C)cc12		replicon	<10 µM
CCCCCCCC(=O)CCCCCC/C=C/[C@H](C(=O)N[C@@H](Cc1ccc(Oc2ccccc2F)cc1)C(=O)O)[C@@](O)(CC(=O)O)C(=O)O		replicon	0.002 µM
N#Cc1c(Nc2ccc(Br)c(C(F)(F)F)c2)s[nH]c1=O		replicon	1–10 µM
Nc1ccn([C@@H]2OC(CO)(CO)[C@@H](O)[C@H]2O)c(=O)n1		replicon	>20 µM
CNc1nc(=O)n2c3c1nnn3C[C@H]1OC2[C@H](O)[C@@H]1O			<6.25 µM
CNC(=O)c1c(-c2ccc(F)cc2)oc2cc(N(C)S(C)(=O)=O)c(OCc3ccc(C#N)cc3)cc12		replicon	<1 µM
CCCCCCCC(=O)CCCCCC/C=C/[C@H](C(=O)N[C@@H](Cc1ccc(-c2cccc(OC)c2)cc1)C(=O)O)[C@@](O)(CC(=O)O)C(=O)O		replicon	0.004 µM
C=CC1C[C@]1(NC(=O)[C@@H]1C[C@@H](Oc2cc(-c3ccccc3)nc3cc(OC)ccc23)CN1C(=O)[C@@H](NC(=O)OC(C)(C)C)C(C)(C)C)C(=O)NS(=O)(=O)C1CCS(=O)(=O)C1	BMS		0.1–1 µM
COC(=O)c1cnccc1Nc1nc(-c2cc(Cl)ccc2F)nc2ncccc12		replicon	19 µM
CC(C)[C@H](N)CC(=O)O[C@H]1[C@H](C)[C@H](n2ccc(=O)[nH]c2=O)O[C@@]1(CO)N=[N+]=[N-]		luciferase	0.72 µM
C=CC1CC1(NC(=O)[C@@H]1C[C@@H](OC(=O)Nc2cc(C(F)(F)F)ccc2N2CCCC2)CN1C(=O)[C@@H](NC(=O)OC(C)(C)C)C(C)(C)C)C(=O)NS(=O)(=O)C1CC1	1b	replicon	0.1–1 µM
C=CC1C[C@]1(NC(=O)[C@@H]1C[C@@H](Oc2cc(-c3ccccc3)nc3cc(OC)ccc23)CN1C(=O)[C@@H](NC(=O)OC(C)(C)C)C(C)(C)C)C(=O)NS(=O)(=O)c1ccc([N+](=O)[O-])s1	BMS		0.1–1 µM
CN(Cc1ccccc1)c1ccc2c(Nc3ccncc3C(=O)O)nc(-c3cc(Cl)ccc3F)nc2n1		replicon	>10 µM
[N-]=[N+]=N[C@]1(CO)O[C@@H](n2ccc(=O)[nH]c2=O)[C@H](O)[C@@H]1O		replicon	>20 µM
C=C1C(=O)O[C@@H]2[C@H]1CC[C@H](COC(=O)/C(C)=C/C)[C@]1(O)CCC(=O)[C@@]21C		replicon	<2 µM
C#CCOc1ccc(C[C@H](NC(=O)[C@@H](/C=C/CCCCCCC(=O)CCCCCCC)[C@@](O)(CC(=O)O)C(=O)O)C(=O)O)cc1		replicon	0.001 µM
N#Cc1c(Nc2ccc(I)cc2)s[nH]c1=O		replicon	1–10 µM
Nc1c(C(=O)N2CCn3c(nnc3C(F)(F)F)C2)sc2nc(-c3ccccc3)cc(C(F)(F)F)c12		MTT	3.3 µM
COc1ccc(CNc2ccc3c(Nc4ccncc4)nc(-c4cc(Cl)ccc4F)nc3n2)cc1		replicon	3.9 µM
C[C@@H](NC(=O)C(c1ccccc1)c1ccccc1)C(=O)Nc1ccc(C2SC(=Nc3ccc(N4CCOCC4)cc3)N(Cc3ccccn3)C2=O)cc1		replicon	<0.1 µM
Nc1nc2c(ncn2[C@@H]2O[C@H](CO)[C@@H](O)[C@@H]2F)c(=O)[nH]1		replicon	<20 µM
C=C[C@@H]1C[C@]1(NC(=O)C1C[C@@H](Oc2cc(-c3csc(NC4CCCCC4)n3)nc3cc(OC)ccc23)CN1C(=O)[C@@H](NC(=O)OC1CCCC1)C(C)(C)C)C(=O)O			<0.5 µM
O=C(c1cc2c(C(F)(F)F)cc(-c3ccccc3)nc2s1)N1CCOCC1		luciferase / replicon	4.5 µM
Nc1nc(=O)n2c3c1nnn3C[C@H]1OC2[C@H](O)[C@@H]1O			10.9 µM
C=CC1CC1(NC(=O)[C@@H]1C[C@@H](OC(=O)Nc2cccc(C(=O)OCC)c2)CN1C(=O)[C@@H](NC(=O)OC(C)(C)C)C(C)(C)C)C(=O)NS(=O)(=O)C1CC1	1b	replicon	1–10 µM
CN(C)c1cccc2cccc(Nc3s[nH]c(=O)c3C#N)c12		replicon	>50 µM
C=CC1CC1(NC(=O)[C@@H]1C[C@@H](OC(=O)N(CCCC)CCCC)CN1C(=O)[C@@H](NC(=O)OC(C)(C)C)C(C)(C)C)C(=O)NS(=O)(=O)C1CC1	1b	replicon	1–10 µM
C=CC1C[C@]1(NC(=O)[C@@H]1C[C@@H](Oc2cc(-c3ccccc3)nc3cc(OC)ccc23)CN1C(=O)[C@@H](NC(=O)OC(C)(C)C)C(C)(C)C)C(=O)NS(=O)(=O)c1cccs1	BMS		<0.1 µM
COC(=O)c1cnccc1Nc1nc(-c2cc(Cl)ccc2F)nc2nc(N(C)Cc3ccccc3)ccc12		replicon	>10 µM
C=CC1CC1(NC(=O)[C@@H]1C[C@@H](OC(=O)Nc2ccccc2C(C)(C)C)CN1C(=O)[C@@H](NC(=O)OC(C)(C)C)C(C)(C)C)C(=O)NS(=O)(=O)C1CC1	1b	replicon	1–10 µM
CNC(=O)c1c(-c2ccc(F)cc2)oc2cc(-c3c(C)noc3C)c(OCc3c(C)noc3C)cc12		replicon	<1 µM
CCCCCCCC(=O)CCCCCC/C=C/[C@H](C(=O)N[C@@H](Cc1ccc(OCC#CCC#CC(C)(C)C)cc1)C(=O)O)[C@@](O)(CC(=O)O)C(=O)O		replicon	0.006 µM
C=CC1C[C@]1(NC(=O)[C@@H]1C[C@@H](Oc2cc(-c3ccccc3)nc3cc(OC)ccc23)CN1C(=O)[C@@H](NC(=O)OC(C)(C)C)C(C)(C)C)C(=O)NS(=O)(=O)c1sc(C)nc1C	BMS		0.1–1 µM
C=CC1CC1(NC(=O)[C@@H]1C[C@@H](OC(=O)Nc2cc(Cl)ccc2C)CN1C(=O)[C@@H](NC(=O)OC(C)(C)C)C(C)(C)C)C(=O)NS(=O)(=O)C1CC1	1b	replicon	1–10 µM
C=CC1C[C@]1(NC(=O)[C@@H]1C[C@@H](Oc2cc(-c3ccccc3)nc3cc(OC)ccc23)CN1C(=O)[C@@H](NC(=O)OC(C)(C)C)C(C)(C)C)C(=O)NS(=O)(=O)c1c(C)noc1C	BMS		0.1–1 µM
CC(C)[C@H](N)CC(=O)OC[C@@]1(N=[N+]=[N-])O[C@@H](n2ccc(=O)[nH]c2=O)[C@@H](C)[C@@H]1OC(=O)C[C@@H](N)C(C)C		luciferase	1.9 µM
C=CC1C[C@]1(NC(=O)[C@@H]1C[C@@H](Oc2cc(-c3ccccc3)nc3cc(OC)ccc23)CN1C(=O)[C@@H](NC(=O)OC(C)(C)C)C(C)(C)C)C(=O)NS(=O)(=O)c1cc(Cl)c(Br)s1	BMS		0.1–1 µM
CCNS(=O)(=O)c1cc2oc(-c3ccc(F)cc3)c(C(=O)NC)c2cc1OC(C)C		replicon	<10 µM
CN(C)[C@@H](C(=O)N1CCC[C@H]1C(=O)Nc1ccc(C#Cc2ccc(NC(=O)[C@@H]3CCCN3C(=O)[C@@H](c3ccccc3)N(C)C)cc2)cc1)c1ccccc1	GT1a	ELISA	<0.0046 µM
C[C@@H](NC(=O)OCc1ccccc1)C(=O)Nc1ccc(C2SC(=NCc3ccccn3)N(C)C2=O)cc1		replicon	1–5 µM
CC#C[C@]1(CO)O[C@@H](n2ccc(=O)[nH]c2=O)[C@H](O)[C@@H]1O		replicon	<20 µM
C[C@@H]1[C@H](n2ccc(=O)[nH]c2=O)O[C@@](COP(=O)(N[C@@H](C)C(=O)OCc2ccccc2)Oc2cccc3ccccc23)(N=[N+]=[N-])[C@H]1O		luciferase	6.2 µM
O=C(Nc1ccc(C2SC(=Nc3ccc(N4CCOCC4)cc3)N(Cc3ccccn3)C2=O)cc1)[C@H]1CCCN1S(=O)(=O)Cc1ccccc1		replicon	1–5 µM
C=CC1CC1(NC(=O)[C@@H]1C[C@@H](OC(=O)Nc2ccc(F)c(F)c2F)CN1C(=O)[C@@H](NC(=O)OC(C)(C)C)C(C)(C)C)C(=O)NS(=O)(=O)C1CC1	1b	replicon	1–10 µM
CNC(=O)c1c(-c2ccc(F)cc2)oc2cc(N(CC(F)(F)F)S(C)(=O)=O)c(OC)cc12		replicon	<1 µM
CC(C)[C@H](N)CC(=O)OC[C@@]1(N=[N+]=[N-])O[C@@H](n2ccc(=O)[nH]c2=O)[C@@H](C)[C@@H]1O		luciferase	0.79 µM
CCCCCCCC(=O)CCCCCC/C=C/[C@H](C(=O)N[C@@H](Cc1ccc(-c2cccc(Cl)c2)cc1)C(=O)O)[C@@](O)(CC(=O)O)C(=O)O		replicon	0.009 µM
N#Cc1c(Nc2ccccc2C(F)(F)F)s[nH]c1=O		replicon	10–50 µM
N#CCn1c(=O)c2nnn3c2n(c1=O)C1O[C@H](C3)[C@@H](O)[C@H]1O			>100 µM
CNC(=O)c1c(-c2ccc(F)cc2)oc2cc(-c3ccn(C)n3)c(OC(C)C)cc12		replicon	<10 µM
C=C1C(=O)O[C@@H]2[C@H]1CC[C@H](COC(=O)CC(C)C)[C@]1(O)CCC(=O)[C@@]21C		replicon	<2 µM
O=c1ccn([C@@H]2OC(CO)(CO)[C@@H](O)[C@H]2O)c(=O)[nH]1		replicon	>20 µM
CCCC1CCC(c2ccc(Nc3s[nH]c(=O)c3C#N)cc2)CC1		replicon	1–10 µM
C=CC1CC1(NC(=O)[C@@H]1C[C@@H](OC(=O)Nc2cc(C)ccc2Cl)CN1C(=O)[C@@H](NC(=O)OC(C)(C)C)C(C)(C)C)C(=O)NS(=O)(=O)C1CC1	1b	replicon	0.1–1 µM
CNC(=O)c1c(-c2ccc(F)cc2)oc2ccc(OC)cc12		replicon	<10 µM
[N-]=[N+]=N[C@]1(CO)O[C@@H](n2ccc(N)nc2=O)[C@@H](O)[C@@H]1O		luciferase	0.22 µM
CNC(=O)c1c(-c2ccc(F)cc2)oc2cc(N)c(O)cc12		replicon	<30 µM
C=C[C@@H]1C[C@]1(NC(=O)C1C[C@@H](Oc2cc(-c3csc(NC4CCCC4)n3)nc3cc(OC)ccc23)CN1C(=O)[C@@H](NC(=O)OC1CCCC1)C1CCCC1)C(=O)O			<0.5 µM

5 of the rows above, restated:

SMILES,strain,read by,result
N#Cc1c(Nc2ccc(I)cc2)s[nH]c1=O,,replicon,1–10 µM
C=CC1C[C@]1(NC(=O)[C@@H]1C[C@@H](Oc2cc(-c3ccccc3)nc3cc(OC)ccc23)CN1C(=O)[C@@H](NC(=O)OC(C)(C)C)C(C)(C)C)C(=O)NS(=O)(=O)c1cccs1,BMS,,<0.1 µM
Nc1nc2c(ncn2[C@@H]2O[C@H](CO)[C@@H](O)[C@@H]2F)c(=O)[nH]1,,replicon,<20 µM
CCCCCCCC(=O)CCCCCC/C=C/[C@H](C(=O)N[C@@H](Cc1ccc(-c2cccc(Cl)c2)cc1)C(=O)O)[C@@](O)(CC(=O)O)C(=O)O,,replicon,0.009 µM
C=CC1CC1(NC(=O)[C@@H]1C[C@@H](OC(=O)Nc2cc(C)ccc2Cl)CN1C(=O)[C@@H](NC(=O)OC(C)(C)C)C(C)(C)C)C(=O)NS(=O)(=O)C1CC1,1b,replicon,0.1–1 µM

Two numbers with a dash give a range or band. Lines come from different laboratories, so protocols vary. Blank or dashed fields: not listed here.